Compound potency records, mixed from different reports. Data source: NIAID ChemDB in PubChem.

Shared fields: growth or infection tests; agent: Mycobacterium tuberculosis

Blank or dashed fields: not listed here. MIC50, MIC90 and the like: level of inhibition, or share of isolates inhibited. ECn: concentration that inhibits the pathogen or its effect by n%. Neighbouring rows are from separate reports. MIC bound comes from a single tested concentration. Percent inhibition refers to the dose given; in toxicity tests it is the harm to the cells.

structure,mutations,tested at,method,read-out,strain or isolate,cells,result
Cc1ccc2nc(C(=O)N/N=C/c3ccc(Oc4cc(Cl)cc(Cl)c4)cc3)[nH]c2c1,,,resazurin,MIC,H37Rv,,12.5 µg/mL
CCCn1c(=O)c2c3c(cnc2n(CCC)c1=O)C(=O)C1=C(C3=O)C2CCC1CC2,pSMT1 luciferase reporter plasmid,,luminescence,EC90,H37Rv,,5.98 µg/mL
O=C(Oc1ccc(C2CC(=O)c3ccc(OC(=O)c4ccccc4)cc3O2)cc1)c1ccccc1,,,BACTEC / radiometric,MIC,H37Rv,,25 µg/mL
CCC(C)CCOc1ccc(N=c2scc(C)n2-c2ccc(OCCC(C)CC)cc2)cc1,,,,MIC,H37Rv,,>125 µg/mL
CC(=O)Oc1ccc(C2CC(=O)c3ccc(O)cc3O2)cc1,,,BACTEC / radiometric,MIC,H37Rv,,>100 µg/mL
N#CCCSC(=S)N1CCN(C(=S)SCCC#N)C1=O,,,BACTEC,MIC,H37Rv,,≥128 µg/mL
[2H]C([2H])([2H])OC(=O)N/C=C/CCCc1cc(O)c(C(=O)/C(C)=C/c2cnc(Oc3ccc(-c4ccccc4)cc3)s2)c(=O)o1,,,fluorescence,MIC,H37Rv,,>50 µg/mL
C=CCCCCn1c2ccccc2c2c(C)c3c[n+](C)ccc3c(C)c21,,6.25 µg/mL,resazurin,inhibition,H37Rv,,100%
CC(C)(C)c1cc(C(C)(C)C)c2oc(Cc3ccc(O)cc3)nc2c1,,,,MIC,My 331/88,,125 µM
CC(C)CCOc1ccc(N=C2SC(C)C(=O)N2c2ccc(OCCC(C)C)cc2)cc1,,,,MIC,H37Rv,,32 µg/mL
CNC(=O)c1nc(C)c(C)[nH]c1=O,,,BACTEC,MIC,H37Rv,,≥12.5 µg/mL
CCCn1c(=O)c2c3c(cnc2n(CCC)c1=O)C(=O)C1=C(C3=O)C2CCC1C2,pSMT1 luciferase reporter plasmid,,luminescence,EC99,H37Rv,,6.23 µg/mL
O=C(N/N=C/c1ccc(Oc2cc(Cl)cc(Cl)c2)cc1)c1nc2ccc([N+](=O)[O-])cc2[nH]1,,,resazurin,MIC,H37Rv,,12.5 µg/mL
CC(C)n1c(=O)c2c3c(cnc2n(C(C)C)c1=O)C(=O)C1=C(C3=O)C2CCC1CC2,pSMT1 luciferase reporter plasmid,,luminescence,EC99,H37Rv,,4.89 µg/mL
NC(=O)C#CC(N)=O,,,BACTEC,MIC,H37Rv,,6.25 µg/mL
Cc1ccn2c(C(=O)OCc3ccccc3)c(C)nc2c1,Resistant to HREZSKP,,broth dilution,MIC90,MDR-TB,,<0.01 µg/mL
CSC(=S)N/N=C/c1cccc(C)n1,,,,MIC,INH-r,,>12.8 µg/mL
CO[C@H]1/C=C/O[C@@]2(C)Oc3c(C)c(O)c4c(O)c(c(/C=N/N5CCN(C)CC5)c(O)c4c3C2=O)NC(=O)/C(C)=C\C=C\[C@H](C)[C@H](O)[C@@H](C)[C@@H](O)[C@@H](C)[C@H](OC(C)=O)[C@@H]1C,,,broth dilution,MIC,H37Rv,,≤0.007 µg/mL
COc1ccc(C(=O)/C=C/c2ccc(C(C)C)cc2)c(OC)c1,,,BACTEC / radiometric,MIC,H37Rv,,25 µg/mL
CC(C)(C)c1cc(C(C)(C)C)c2nc(C(=O)NC(Cc3ccc(O)cc3)C(=O)O)oc2c1,,,,MIC,My 331/88,,1000 µM
CCOC(=O)C1=C(C)NC(C)=C(C(=O)OCC)C1c1cn(-c2ccccc2)nc1-c1ccc(F)cc1,,,resazurin,MIC,H37Rv,VERO,0.02 µg/mL
Cc1ccc(C)n1NC(=O)c1ccc(N)cc1O,,,,MIC,Erdman,,2.6 µg/mL
CC(=O)Oc1ccccc1C(=O)Nc1ncc([N+](=O)[O-])s1,,,visual reading,MIC,T spoligotype 5,,24 µg/mL
O=c1n(CCCN2CCN(c3cccc(Cl)c3)CC2)nc2n1-c1ccc3ccccc3c1SC2,,,resazurin,MIC bound,H37Rv,,>6.25 µg/mL
C=CCOc1ccc(N=C2SCC(=O)N2c2ccc(OCC=C)cc2)cc1,,,,MIC,H37Rv,,16 µg/mL
COc1ccc(C(=O)/C=C/c2ccc(OC(C)=O)cc2)c(OC)c1,,,BACTEC / radiometric,MIC,H37Rv,,>100 µg/mL
CC1(C)N=C(N)N=C(N)N1c1ccc(Cl)c(C(F)(F)F)c1.Cl,,,BACTEC,MIC bound,H37Rv,,>12.5 µg/mL
CC(=O)Oc1ccc(C2CC(=O)c3ccc(OC(C)=O)cc3O2)cc1,,,BACTEC / radiometric,MIC,H37Rv,,100 µg/mL
Cc1cc(Oc2ccc(/C=N/NC(=O)c3nc4ccc([N+](=O)[O-])cc4[nH]3)cc2)ccc1Cl,,,resazurin,MIC,H37Rv,,1.5 µg/mL
O=C(NNC(=S)Nc1cccc(C(F)(F)F)c1)c1ccncc1,,6.25 µg/mL,resazurin,inhibition,H37Rv,,96%
CCCCCCn1c(=O)c2c3c(cnc2n(CCCCCC)c1=O)C(=O)C1=C(C3=O)C2CCC1CC2,pSMT1 luciferase reporter plasmid,,luminescence,EC90,H37Rv,,6.13 µg/mL
CC(C)CCOc1ccc(N=c2scc(C(C)(C)C)n2-c2ccc(OCCC(C)C)cc2)cc1,,,,MIC,H37Rv,,>125 µg/mL
COC(=O)C1=C(C)NC(C)=C(C(=O)OC)C1c1cn(-c2ccccc2)nc1-c1ccc(Br)cc1,,6.25 µg/mL,resazurin,inhibition,H37Rv,,40%
CC[C@H](C)N1CCN(c2cc(=O)c3nc4c(oc3c2)c2c(=O)c3c(O)c(C)c5c(c34)=C(O)[C@@](C)(O/C=C/[C@H](OC)[C@@H](C)[C@@H](OC(C)=O)[C@H](C)[C@H](O)[C@H](C)[C@@H](O)[C@@H](C)/C=C/C=C(/C)C(=O)N2)O5)CC1,,,,MIC90,16 strains (rifampicin-susceptible),,1.56 µg/mL
CCOC(=O)C1=C(C)NC(C)=C(C(=O)OCC)C1c1cn(-c2ccccc2)nc1-c1ccc(OC)cc1,,6.25 µg/mL,resazurin,inhibition,H37Rv,,52%
COCN1CCC2N(COC)CCC3N(COC)CCC1N23,,,BACTEC,MIC bound,H37Rv,,≤128 µg/mL
CC(C)n1c(=O)c2c3c(cnc2n(C(C)C)c1=O)C(=O)C1=C(C3=O)C2CCC1C2,pSMT1 luciferase reporter plasmid,,luminescence,EC90,H37Rv,,1.5 µg/mL
Cc1ccc(C)n1NC(=O)c1ccncc1,,,,MIC,Erdman,,3.2 µg/mL
COc1ccc(/C=C/C(=O)c2ccc(OC)cc2OC)cc1,,,BACTEC / radiometric,MIC,H37Rv,,>100 µg/mL
COC(=O)C1=C(C)NC(C)=C(C(=O)OC)C1c1cn(-c2ccccc2)nc1-c1ccc(Cl)cc1,,6.25 µg/mL,resazurin,inhibition,H37Rv,,62%
O=c1cc2oc3cc(O)c(O)cc3c(-c3ccccc3O)c-2cc1O,,,broth dilution,MIC90,H37Rv,,133 µg/mL
O=C1c2ccccc2C(=O)c2c3c(cc(NCCNCCO)c21)N(CCO)CCN3,,6.25 µg/mL,,inhibition,H37Rv,,12%
CCOC(=O)C1=C(C)NC(C)=C(C(=O)OCC)C1c1cn(-c2ccccc2)nc1-c1ccccc1,,,resazurin,MIC,H37Rv,VERO,1.56 µg/mL
NNC(=O)c1ccncc1,,,,MIC,H37Rv,,0.03 µg/mL
NNC(=O)c1ccncc1,,,,MIC90,H37Rv,,0.1 µg/mL
CC[C@H](CC[C@@H](C)[C@H]1CCC2C3CC=C4C(C)(C)[C@@H](O[C@@H]5O[C@H](CO)[C@@H](O)[C@H](O)[C@H]5O)CC[C@]4(C)C3CC[C@@]21C)C(C)C,,,,MIC,,,128 µg/mL
CC(=O)NNC(=S)N/C=C(/C(=O)c1ccccc1)c1ccccc1,,12.5 µg/mL,BACTEC,inhibition,H37Rv,,46%
CCOC(=O)C1=C(C)NC(C)=C(C(=O)OCC)C1c1cn(-c2ccccc2)nc1-c1ccc(Br)cc1,,6.25 µg/mL,resazurin,inhibition,H37Rv,VERO,100%
CC(=O)OC1C2(CC3N4C(=O)C5(CO)SSC4(CC31O)C(=O)N5C)OC(C)C(C)(C)C2=O,,,,MIC,H37Rv,VERO,3.13 µg/mL
CCCCCCCCCCCO[C@H]1CCC23CC24CC[C@]2(C)[C@@H]([C@H](C)C/C=C/C(C)(C)O)CC[C@@]2(C)C4CCC3C1(C)C,,,,MIC,,,>128 µg/mL
CCCCS(=O)(=O)Nc1cc2c(Cl)[nH]nc2cc1C,,,resazurin,MIC,H37Rv,,>100 µM
O=C1c2ccccc2-c2nccc3c2c1nc1ccccc13,,128 µg/mL,BACTEC,inhibition,H37Rv,,100%
CC(C)CCOc1ccc(N=c2scc(-c3ccccc3)n2-c2ccc(OCCC(C)C)cc2)cc1,,,,MIC,H37Rv,,32 µg/mL
CNCC(Cc1cc(Br)c(CO)c(Br)c1)OC,,,,MIC,H37Rv,,820 µM
O/N=C1\CC(c2ccc(O)cc2)Oc2cc(O)ccc21,,,BACTEC / radiometric,MIC,H37Rv,,25 µg/mL
Cc1cc2n[nH]c(Cl)c2cc1NS(=O)(=O)CCCCF,,,resazurin,MIC,H37Rv,,>100 µM
CCN(CC)CCOc1ccc(-n2c(C)csc2=Nc2ccc(OCC(C)C)cc2)cc1,,,,MIC,H37Rv,,24 µg/mL
NNC(=O)c1ccncc1,,,,MIC,Pan-susceptible clinical isolate 4,,0.06 µg/mL
CC(=O)Nc1cc(OCC(=O)O)ccc1S(=O)(=O)c1ccc(OCC(=O)O)cc1NC(C)=O,,,BACTEC,MIC,H37Rv,,≥12.5 µg/mL
Cn1c(=O)c2c3c(cnc2n(C)c1=O)C(=O)C1=C(C3=O)C2CCC1CC2,pSMT1 luciferase reporter plasmid,,luminescence,EC90,H37Rv,,6.98 µg/mL
O=C(NNC(=O)c1cccc2ccccc12)c1ccc(Cl)cc1Cl,,,BACTEC,MIC,H37Rv,,≥12.5 µg/mL
COC1=C(Br)[C@@H](O)[C@]2(C=C1Br)CC(C(=O)NCC(O)c1cc(Br)c(OCCCNC(=O)C3=NO[C@]4(C=C(Br)C(OC)=C(Br)[C@@H]4O)C3)c(Br)c1)=NO2,,,,MIC,H37Rv,,7.3 µM
COc1ccc(Oc2ccc(/C=N/NC(=O)c3nc4ccccc4[nH]3)cc2)cc1,,,resazurin,MIC,H37Rv,,6.25 µg/mL
CO[C@H]1/C=C/O[C@@]2(C)Oc3c(C)c(O)c4c(=O)c(c5oc6cc(N7CCN(CC(C)C)CC7)cc(=O)c6nc5c4c3=C2O)NC(=O)/C(C)=C\C=C\[C@H](C)[C@H](O)[C@@H](C)[C@@H](O)[C@@H](C)[C@H](OC(C)=O)[C@@H]1C,,,,MIC90,6 strains (rifampicin-resistant),,≤0.0125 µg/mL
CC1(C)Nc2ccc(Cl)cc2C(=S)N1c1cccc(Cl)c1,,,,MIC,My 331/88,,62.5 µg/mL
CCCC[P+](c1ccccc1)(c1ccccc1)c1ccccc1,,,broth dilution,MIC,H37Ra,,>128 µg/mL
CNC(=O)Oc1cccc(NC(=S)SC)c1,,,BACTEC,MIC,H37Rv,,128 µg/mL
CC(C)Cn1c(=O)c2c3c(cnc2n(CC(C)C)c1=O)C(=O)C1=C(C3=O)C2CCC1CC2,pSMT1 luciferase reporter plasmid,,luminescence,EC99,H37Rv,,12.28 µg/mL
CC1(C)Nc2ccccc2C(=S)N1c1ccc(Cl)c(Cl)c1,,,,MIC,My 331/88,,62.5 µg/mL
Cn1cnc([N+](=O)[O-])c1N1CCN(c2ccccc2)CC1,,,resazurin,MIC bound,H37Rv,,>6.25 µg/mL
Cc1ccc2nc(C(=O)N/N=C/c3ccc(Oc4ccccc4Cl)cc3)[nH]c2c1,,,resazurin,MIC,H37Rv,,3.125 µg/mL
Nc1nc2nn(-c3ccc(C(=O)NC(CCC(=O)O)C(=O)O)cc3)nc2c(=O)[nH]1,,,BACTEC,MIC bound,H37Rv,,>12.5 µg/mL
O=C(/C=C/c1ccccc1)c1ccc(O)cc1O,,,BACTEC / radiometric,MIC,H37Rv,,25 µg/mL
C[C@H]1CC[C@@H]2[C@@H](C)[C@H]3[C@H](C[C@H]4[C@@H]5CC=C6C[C@@H](O)CC[C@]6(C)[C@H]5C[C@H](O)[C@]34C)N2C1,,12.8 µg/mL,BACTEC,inhibition,H37Rv,,9%
CCOC(=O)C1=C(C)NC(C)=C(C(=O)OCC)C1c1cn(-c2ccccc2)nc1-c1ccc([N+](=O)[O-])cc1,,6.25 µg/mL,resazurin,inhibition,H37Rv,VERO,93%
Cc1ccccc1N1CCOS(=O)OC(C)C1,,12.5 µg/mL,BACTEC,inhibition,H37Rv,,5%
Cc1nc2ccc(Cl)cc2c(=S)n1-c1ccc(C(C)C)cc1,,,,MIC,My 331/88,,31 µg/mL
Cc1sc(=Nc2ccc(OCCC(C)C)cc2)n(-c2ccc(OCCC(C)C)cc2)c1C,,,,MIC,H37Rv,,12 µg/mL